PubChem BioAssay AID624099 – ICCB-Longwood – 2012

Purpose: 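Human genes that papillomavirus E2 requires to repress the HPV18 LCR promoter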 (primary screen)
System: human C33A cervical carcinoma cells (HPV-negative) stably expressing BPV1 E2 and an HPV18 LCR luciferase reporter
Knock-down reagent: siRNA pool against human genes, 40 nM
Duration: 72 h
Read-out: 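HPV18 LCR reporter light per well, converted to plate-wise z-scores that exclude control wells, and averaged over triplicate plates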
Scale: mean z-score and z-score: higher = stronger reporter signal, weaker E2 silencing
Call rule: 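Mean z ≥ 2 together with z ≥ 2 in two or more of the three replicates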
In all, the deposit lists about 21,000 reagents; this is an unselected part. In the full data, 497 (2.4%) are marked active. 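Higher z means weaker E2 silencing; only reporter increases were scored, and knock-downs that hurt cell survival may mask genuine repressor factors.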 A number with no mark means an inactive call. The numbers tell different reagents against one gene apart. No sequences are given here.

mean z-score	z-score, replicate A	z-score, replicate B	z-score, replicate C	gene	pool no.
-0.19	-0.12	-0.06	-0.4	LOC390760 (retired record)	1
-0.26	-0.33	0	-0.47	SPDYA (speedy/RINGO cell cycle regulator family member A)	1
-0.34	-0.72	-0.27	-0.04	SPACA3 (sperm acrosome associated 3)	1
-0.23	-0.19	-0.2	-0.31	ATP2A1	1
0.24	0.19	0.05	0.46	LOC400870 (retired record)	1
0.72	1.06	0.47	0.64	RBM42 (RNA binding motif protein 42)	1
-0.6	-0.52	-0.55	-0.74	BRCA1 (BRCA1 DNA repair associated)	1
-1.08	-1.17	-1.21	-0.85	ELOA (elongin A)	1
0.8	0.79	0.59	1.01	UBR3 (ubiquitin protein ligase E3 component n-recognin 3)	1
0.89	1.03	0.91	0.73	FCGBP (Fc gamma binding protein)	1
-0.97	-0.9	-1.09	-0.93	AHCYL1 (adenosylhomocysteinase like 1)	1
0.06	-0.11	0.15	0.14	COL17A1 (collagen type XVII alpha 1 chain)	1
1.44	1.31	1.64	1.37	CELSR3 (cadherin EGF LAG seven-pass G-type receptor 3)	1
0.54	0.64	0.58	0.39	HP (haptoglobin)	1
-0.91	-1.01	-0.8	-0.91	ZNF226 (zinc finger protein 226)	1
1.62	1.64	1.46	1.74	NUBP1 (NUBP iron-sulfur cluster assembly factor 1, cytosolic)	1
1.12	0.8	1.33	1.21	RHOB (ras homolog family member B)	1
-1.86	-1.82	-1.71	-2.05	FRRS1 (ferric chelate reductase 1)	1
-1.17	-1.24	-1.11	-1.17	TARDBP (TAR DNA binding protein)	1
-0.68	-1	-0.66	-0.4	FBXL18 (F-box and leucine rich repeat protein 18)	1
-0.03	0.37	-0.29	-0.17	CRYBB3 (crystallin beta B3)	1
0.72	0.79	0.96	0.4	FAM131C (family with sequence similarity 131 member C)	1
0.46	0.21	0.54	0.63	SPR (sepiapterin reductase)	1
0.21	0.66	0.29	-0.33	MACROD2 (mono-ADP ribosylhydrolase 2)	1
0.18	0.16	0.11	0.29	UPK1B (uroplakin 1B)	1
1.6	1.75	1.47	1.59	HMGXB3 (HMG-box containing 3)	1
0.06	-0.29	0.32	0.16	GPR151 (G protein-coupled receptor 151)	1
-1.01	-1.22	-1.07	-0.73	SLC7A10	1
1.48	1.44	1.47	1.53	IKBKB (inhibitor of nuclear factor kappa B kinase subunit beta)	1
0.76	0.89	0.6	0.8	CFAP58 (cilia and flagella associated protein 58)	1
0.97	1.07	0.9	0.95	EP300 (EP300 lysine acetyltransferase)	1
-1.43	-1.15	-1.39	-1.74	MTF1 (metal regulatory transcription factor 1)	1
0.64	0.43	0.61	0.87	MLC1 (modulator of VRAC current 1)	1
0.47	0.35	0.49	0.56	ZXDA (zinc finger X-linked duplicated A)	1
0.46	0.78	0.26	0.34	COX7B (cytochrome c oxidase subunit 7B)	1
0.69	0.84	0.47	0.77	PREX2	1
-0.1	-0.39	0.1	-0.01	CHTOP (chromatin target of PRMT1)	1
1.18	1.16	1.3	1.08	KDELR1 (KDEL endoplasmic reticulum protein retention receptor 1)	1
1.57	1.64	1.48	1.6	WFS1 (wolframin ER transmembrane glycoprotein)	1
1.16	1.4	0.98	1.1	LOC54073 (retired record)	1
-0.03	-0.23	0	0.14	LBH (LBH regulator of Wnt signaling pathway)	1
1.18	0.98	1.18	1.4	FILIP1L (filamin A interacting protein 1 like)	1
-0.66	-0.53	-0.48	-0.96	GALNT6 (polypeptide N-acetylgalactosaminyltransferase 6)	1
-0.14	-0.35	0.06	-0.12	IL17RB (interleukin 17 receptor B)	1
-0.11	-0.08	-0.32	0.09	PAAF1 (proteasomal ATPase associated factor 1)	1
0.85	0.94	0.72	0.88	DAP3 (death associated protein 3)	1
-0.72	-0.69	-0.75	-0.73	RAD50 (RAD50 double strand break repair protein)	1
0.53	0.7	0.59	0.31	PSMD4 (proteasome 26S subunit ubiquitin receptor, non-ATPase 4)	1

Entries above whose gene name starts with F or f (5):
mean z-score	z-score, replicate A	z-score, replicate B	z-score, replicate C	gene	pool no.
0.89	1.03	0.91	0.73	FCGBP (Fc gamma binding protein)	1
-1.86	-1.82	-1.71	-2.05	FRRS1 (ferric chelate reductase 1)	1
-0.68	-1	-0.66	-0.4	FBXL18 (F-box and leucine rich repeat protein 18)	1
0.72	0.79	0.96	0.4	FAM131C (family with sequence similarity 131 member C)	1
1.18	0.98	1.18	1.4	FILIP1L (filamin A interacting protein 1 like)	1

Further entries:
mean z-score	z-score, replicate A	z-score, replicate B	z-score, replicate C	gene	pool no.
-1.05	-0.74	-0.77	-1.63	HEATR1 (HEAT repeat containing 1)	1
-0.66	-0.67	-0.75	-0.56	NUB1 (negative regulator of ubiquitin like proteins 1)	1
-1.45	-1.51	-1.14	-1.69	PRAMEF17 (PRAME family member 17)	1
2.25 (active)	1.81	2.36	2.57	PFN1P3 (profilin 1 pseudogene 3)	1
1.09	0.88	1.29	1.11	UGT1A4 (UDP glucuronosyltransferase family 1 member A4)	1
0.18	0.15	0.45	-0.06	CCDC57 (coiled-coil domain containing 57)	1
0.15		0.27	0.03	CCDC57 (coiled-coil domain containing 57)	2
-1.09	-1.32	-1.21	-0.74	XKRY (XK related, Y-linked (pseudogene))	1
-0.58	-0.48	-0.39	-0.88	SLC26A2	1
0.61	0.14	1.09	0.59	AP5S1 (adaptor related protein complex 5 subunit sigma 1)	1
-0.06	-0.06	0.05	-0.18	LOC402252 (retired record)	1
1.23	1.74	0.76	1.19	EGFR (epidermal growth factor receptor)	1
-2.36	-2.53	-2.19	-2.36	CSTPP1	1
-0.11	-0.05	-0.07	-0.21	FAM114A2 (family with sequence similarity 114 member A2)	1
1.37	1.28	1.36	1.48	HSD17B7P2 (hydroxysteroid 17-beta dehydrogenase 7 pseudogene 2)	1
-0.2	-0.33	-0.15	-0.13	NRDE2 (NRDE-2, necessary for RNA interference, domain containing)	1
-0.33	-0.28	-0.76	0.04	IGFBP1 (insulin like growth factor binding protein 1)	1
-0.28	-0.23	-0.21	-0.4	ZNF469 (zinc finger protein 469)	1
-0.46	-0.48	-0.83	-0.09	ACOT2 (acyl-CoA thioesterase 2)	1
-2.01	-2.34	-1.91	-1.76	LOC389749 (retired record)	1
-0.6	-0.49	-0.58	-0.75	H4C2 (H4 clustered histone 2)	1
-2.04	-1.91	-2.17	-2.02	LYZL1 (lysozyme like 1)	1
0.57	0.38	0.79	0.55	SCN5A (sodium voltage-gated channel alpha subunit 5)	1
-0.42	-0.41	-0.52	-0.34	OR13A1 (olfactory receptor family 13 subfamily A member 1)	1
0.19	0.22	0.13	0.24	FMO3 (flavin containing dimethylaniline monoxygenase 3)	1
